Assay results taken from article PMC6478803.

How the values were obtained:
[1] = target: FleQ (Pseudomonas syringae pv. tomato DC3000) (UniProt Q884Y2); assay: EMSA; conditions: STAD: 25 mM Tris-acetate pH 8.0, 8 mM Mg-acetate, 10 mM KCl, 3.5% PEG-8000, 1 mM DTT, 10 ug/ml poly(dI-dC), 200 ug/ml BSA, 20 nM probe (Results: 1 nM), 30 min at 4 C, recombinant protein, residues 1-491, probe letters rebuilt from the primers and the genome
[2] = target: FleQ (Pseudomonas syringae pv. tomato DC3000) (UniProt Q884Y2); assay: competition with a labelled probe; conditions: cold wssA1-2 at 1x and 5x; STAD: 25 mM Tris-acetate pH 8.0, 8 mM Mg-acetate, 10 mM KCl, 3.5% PEG-8000, 1 mM DTT, 10 ug/ml poly(dI-dC), 200 ug/ml BSA; 20 nM probe (Results: 1 nM); 30 min at 4 C; recombinant protein; residues 1-491; probe letters rebuilt from the primers and the genome
[3] = target: FleQ (Pseudomonas syringae pv. tomato DC3000) (UniProt Q884Y2); assay: DNase I footprinting; conditions: 1 uM FleQ; STAD: 25 mM Tris-acetate pH 8.0, 8 mM Mg-acetate, 10 mM KCl, 3.5% PEG-8000, 1 mM DTT, 10 ug/ml poly(dI-dC), 200 ug/ml BSA; 20 nM probe (Results: 1 nM); 30 min at 4 C; recombinant protein; residues 1-491; probe letters rebuilt from the primers and the genome
[4] = target: FleQ (Pseudomonas syringae pv. tomato DC3000) (UniProt Q884Y2); assay: DMS footprinting; conditions: no protection, hyperreactive G -88 and -89 bottom strand; STAD: 25 mM Tris-acetate pH 8.0, 8 mM Mg-acetate, 10 mM KCl, 3.5% PEG-8000, 1 mM DTT, 10 ug/ml poly(dI-dC), 200 ug/ml BSA; 20 nM probe (Results: 1 nM); 30 min at 4 C; recombinant protein; residues 1-491; probe letters rebuilt from the primers and the genome
[5] = target: FleQ (Pseudomonas syringae pv. tomato DC3000) (UniProt Q884Y2); assay: DNase I and DMS footprinting; conditions: STAD: 25 mM Tris-acetate pH 8.0, 8 mM Mg-acetate, 10 mM KCl, 3.5% PEG-8000, 1 mM DTT, 10 ug/ml poly(dI-dC), 200 ug/ml BSA, 20 nM probe (Results: 1 nM), 30 min at 4 C, recombinant protein, residues 1-491, probe letters rebuilt from the primers and the genome

Measured: binding result

CGTCAGCACGACTCATTCTGTACGACCTCAATTGGGGCCACCAGGCACAACCCCAGTGGAAAAGCATTAATACTAATGTGTAATGTCATTGTGACAGTGTCAATAAACCGATATATGGCGTCCACAATTTACCGATGAGCGGTAAATTACTCGTTTTTCGACATTTTATTGGCGCTACAAAATTGTAGATCTGGAGACAATCGGGGGCAAACGGGGCTGATTCGAGGGTTTTACGCACTTGCGGCTATATATCCTATGGATCGGATATATAGCCGCTCAAGGGGAGGATCGAATTAAATCAGTGGCTGG (double strand) [wssA1]
binds: [1]; 1 uM FleQ, label: 5'-32P

CTGTGCGGACATCTGATTGAACAGCGAGAACGCCTGCTCAAGCCCCTGACGACTTTCCAGCTCCGGGGAGTACCGGGCCTGAGCAGATTGGGCGGACGTCAGTTGGGCGGCCTGGGACATAGTTCATCTCTCTCGTGGCGAACCGTCAGTAAACGGTGTGTTAAGAGAGACTTAGCAATCCTCGTGCCGAAAAAAAACCCTTGAAAATTCAAGGGCTTGATTTTTGGCGTTTGAAACAGGCGTCAATCCTCCGCCTGTTCATCACCCTCACGACGGCTCATACCGTACTTGCGCATCTTCTCGACCAGGGTGGT (double strand) [fleS1]
binds: [1]; 1 uM FleQ, label: 5'-32P

TGGTTGCTCGATAGACGGCTGAGAGGTCGCGCGTTGCAGTGCAACAGACGGGGTGCTGGAAACGGAAGATTCCTGATAATCCAGGCTGTTGTCCGTCTCCAGATAACCGTCCGAGCTCGCGCCGAAACGTTGAAACAGATTGGCCACATCGTCAGCACGACTCATTCTGTACGACCTCAATTGGGGCCACCAGGCACAACCCCAGTGGAAAAGCATTAATACTAATGTGTAATGTCATTGTGACAGTGTCAATAAACCGATATATGGCGTCCACAATTTACCGATGAGCGGTAAATTACTCGTTTTTCGACATTTTATTGGCGCTACAAAATTGTAGATCTGGAGACAATCGGGGGCAAACGGGGCTGATTCGAGGGTTTTACGCACTTGCGGCTATATATCCTATGGATCGGATATATAGCCGCTCAAGGGGAGGATCGAATTAAATCAGTGGCTGG (double strand) [wssA1-2]
binds: [1]; 1 uM FleQ | [1]; 0.5 mM ATP | [1]; 0.5 mM GTP | [1]; 0.5 mM c-di-AMP | [2] | [3] | [4] | [5]; ATP | [5]; GTP | [5]; c-di-AMP
